Assays:
[1] = test system: human neuroblastoma SK-N-SH; assay: Cell bioassay in human neuroblastoma SK-N-SH cells; settings: FIG. 8A, 10A
[2] = test system: human colon carcinoma HT-29 cells; assay: Cell bioassay in human colon carcinoma HT-29 cells; type: cell-based; settings: FIG. 12A, 12B

| Substance | cytotoxicity in the presence of ouabain and veratridine [1] | response in the presence of ouabain and veratridine [2] |
| --- | --- | --- |
| CTX3C | dose-dependant cytotoxicity |  |
| brevetoxin PbTx-1 | dose-dependant cytotoxicity |  |
| ciguatoxin |  | lack of response |

— patent US5858687A (priority 1995, dated 1999)
